Laboratory results as given in US20220089698A1, “ANTIBODIES THAT TARGET HIV GP120 AND METHODS OF USE” (published 2022).

Columns and labels:
Assay in all cases: cell-based or functional assay
[1] = target: HIV-1 envelope glycoprotein (Env, gp120) of virus VS017 (HIV-1)
[2] = target: HIV-1 envelope glycoprotein (Env, gp120) of virus 302076 (HIV-1)
[3] = target: HIV-1 envelope glycoprotein (Env, gp120) of virus 7467 (HIV-1)
[4] = target: HIV-1 envelope glycoprotein (Env, gp120) of virus VS049 (HIV-1)
[5] = target: HIV-1 envelope glycoprotein (Env, gp120) of virus 7595 (HIV-1)
[6] = target: HIV-1 envelope glycoprotein (Env, gp120) of virus 1489 (HIV-1)
[7] = target: HIV-1 envelope glycoprotein (Env, gp120) of virus VS046 (HIV-1)
[8] = target: HIV-1 envelope glycoprotein (Env, gp120) of virus 7576 (HIV-1)
[9] = target: HIV-1 envelope glycoprotein (Env, gp120) of virus 8106 (HIV-1)
[10] = target: HIV-1 envelope glycoprotein (Env, gp120) of virus 1413 (HIV-1)
[11] = target: HIV-1 envelope glycoprotein (Env, gp120) of virus VS026 (HIV-1)
[12] = target: HIV-1 envelope glycoprotein (Env, gp120) of virus VS042 (HIV-1)
[13] = target: HIV-1 envelope glycoprotein (Env, gp120) of virus 7552 (HIV-1)
[14] = target: HIV-1 envelope glycoprotein (Env, gp120) of virus 8320 (HIV-1)
[15] = target: HIV-1 envelope glycoprotein (Env, gp120) of virus 92US657 (HIV-1)
[16] = target: HIV-1 envelope glycoprotein (Env, gp120) of virus CHO77 (HIV-1)
[17] = target: HIV-1 envelope glycoprotein (Env, gp120) of virus 92US712 (HIV-1)
[18] = target: HIV-1 envelope glycoprotein (Env, gp120) of virus 8134 (HIV-1)
[19] = target: HIV-1 envelope glycoprotein (Env, gp120) of virus 8117 (HIV-1)
[20] = target: HIV-1 envelope glycoprotein (Env, gp120) of virus 92US727 (HIV-1)
[21] = target: HIV-1 envelope glycoprotein (Env, gp120) of virus 7141 (HIV-1)
[22] = target: HIV-1 envelope glycoprotein (Env, gp120) of virus THRO (HIV-1)
[23] = target: HIV-1 envelope glycoprotein (Env, gp120) of virus VS030 (HIV-1)
[24] = target: HIV-1 envelope glycoprotein (Env, gp120) of virus 92HT593 (HIV-1)
[25] = target: HIV-1 envelope glycoprotein (Env, gp120) of virus 8318 (HIV-1)
[26] = target: HIV-1 envelope glycoprotein (Env, gp120) of virus 8176 (HIV-1)
[27] = target: HIV-1 envelope glycoprotein (Env, gp120) of virus 7051 (HIV-1)
[28] = target: HIV-1 envelope glycoprotein (Env, gp120) of virus 7103 (HIV-1)
[29] = target: HIV-1 envelope glycoprotein (Env, gp120) of virus REJO (HIV-1)
[30] = target: HIV-1 envelope glycoprotein (Env, gp120) of virus 1012 (HIV-1)
[31] = target: HIV-1 envelope glycoprotein (Env, gp120) of virus 1003 (HIV-1)
[32] = target: HIV-1 envelope glycoprotein (Env, gp120) of virus 7015 (HIV-1)
[33] = target: HIV-1 envelope glycoprotein (Env, gp120) of virus VS001 (HIV-1)
[34] = target: HIV-1 envelope glycoprotein (Env, gp120) of virus VS004 (HIV-1)
[35] = target: HIV-1 envelope glycoprotein (Env, gp120) of virus VS039 (HIV-1)
[36] = target: HIV-1 envelope glycoprotein (Env, gp120) of virus 8110 (HIV-1)
[37] = target: HIV-1 envelope glycoprotein (Env, gp120) of virus VS044 (HIV-1)
[38] = target: HIV-1 envelope glycoprotein (Env, gp120) of virus VS043 (HIV-1)
[39] = target: HIV-1 envelope glycoprotein (Env, gp120) of virus VS052 (HIV-1)
[40] = target: HIV-1 envelope glycoprotein gp120 of virus 8320 (HIV-1 subtype B, virus 8320)
[41] = target: HIV-1 envelope glycoprotein gp120 of virus CHO77 (HIV-1 subtype B, virus CHO77)
[42] = target: HIV-1 envelope glycoprotein gp120 of virus BaL (HIV-1 BaL (lab adapted strain, subtype …))
[43] = target: HIV-1 envelope glycoprotein gp120 of virus 92US657 (HIV-1 subtype B, isolate 92US657)

B1: Antibody 2.3.1-1 (antibody, human IgG1, kappa)
heavy: QVHLSQSGAAVTKPGASVRVSCEASGYNIRDYFIHWWRQAPGQGLQWVGWINPKTGQPNNPRQFQGRVSLTRHASWDFDTFSFYMDLKAVRSDDTAIYFCARQRSDYWDFDVWGSGTQVTVSSASTKGPSVFPLAPSSKSTSGGTAALGCLVKDYFPEPVTVSWNSGALTSGVHTFPAVLQSSGLYSLSSVVTVPSSSLGTQTYICNVNHKPSNTKVDKKVEPKSCDKTHTCPPCPAPELLAGPDVFLFPPKPKDTLMISRTPEVTCVVVDVSHEDPEVKFNWYVDGVEVHNAKTKPREEQYNSTYRVVSVLTVLHQDWLNGKEYKCKVSNKALPLPEEKTISKAKGQPREPQVYTLPPSREEMTKNQVSLTCLVKGFYPSDIAVEWESNGQPENNYKTTPPVLDSDGSFFLYSKLTVDKSRWQQGNVFSCSVLHEALHSHYTQKSLSLSPGK
light: not shown
B1 was tested, and the “Virus Neutralization Potency” value [1] was 0.88 µg/mL, the “Virus Neutralization Potency” value [2] was 0.1 µg/mL and the “Virus Neutralization Potency” value [3] was 0.06 µg/mL. The “Virus Neutralization Potency” value [4] was 4.86 µg/mL, the “Virus Neutralization Potency” value [5] was 8.5 µg/mL and the “Virus Neutralization Potency” value [6] was 0.18 µg/mL. The “Virus Neutralization Potency” value [7] was 0.03 µg/mL, the “Virus Neutralization Potency” value [8] was 0.92 µg/mL and the “Virus Neutralization Potency” value [9] was 3.12 µg/mL. The “Virus Neutralization Potency” value [10] was 5.28 µg/mL, the “Virus Neutralization Potency” value [11] was 0.13 µg/mL and the “Virus Neutralization Potency” value [12] was 1.11 µg/mL. For the same binder, the “Virus Neutralization Potency” value [13] was 20.7 µg/mL, the “Virus Neutralization Potency” value [14] was 2.88 µg/mL and the “Virus Neutralization Potency” value [15] was 0.36 µg/mL. For the same binder, the “Virus Neutralization Potency” value [16] was 0.03 µg/mL, the “Virus Neutralization Potency” value [17] was 0.06 µg/mL and the “Virus Neutralization Potency” value [18] was 2.27 µg/mL. The “Virus Neutralization Potency” value [19] was 2.08 µg/mL, the “Virus Neutralization Potency” value [20] was 2.02 µg/mL and the “Virus Neutralization Potency” value [21] was 1.62 µg/mL. For the same binder, the “Virus Neutralization Potency” value [22] was 3.96 µg/mL, the “Virus Neutralization Potency” value [23] was 6.38 µg/mL and the “Virus Neutralization Potency” value [24] was 0.29 µg/mL. For the same binder, the “Virus Neutralization Potency” value [25] was 0.31 µg/mL, the “Virus Neutralization Potency” value [26] was 0.3 µg/mL and the “Virus Neutralization Potency” value [27] was 0.52 µg/mL. For the same binder, the “Virus Neutralization Potency” value [28] was 0.94 µg/mL, the “Virus Neutralization Potency” value [29] was 0.02 µg/mL and the “Virus Neutralization Potency” value [30] was 1.55 µg/mL. For the same binder, the “Virus Neutralization Potency” value [31] was 1.87 µg/mL, the “Virus Neutralization Potency” value [32] was 0.63 µg/mL and the “Virus Neutralization Potency” value [33] was 0.07 µg/mL. The “Virus Neutralization Potency” value [34] was 1.92 µg/mL, the “Virus Neutralization Potency” value [35] was 0.06 µg/mL and the “Virus Neutralization Potency” value [36] was 3.48 µg/mL. The “Virus Neutralization Potency” value [37] was 0.16 µg/mL, the “Virus Neutralization Potency” value [38] was 0.97 µg/mL and the “Virus Neutralization Potency” value [39] was 0.33 µg/mL.

B2: Antibody 1.33.32-1 (antibody, human IgG1, kappa)
heavy: QVQLVQSGAEVKKPGASVRVSCKASGYNIRDYFIHWWRQAPGQGLQWVGWINPKTGQPNNPRQFQGRVTLTRHASWDFDTFSFYMDLKALRSDDTATYFCARQRSDYWDFDVWGSGTQVTVSSASTKGPSVFPLAPSSKSTSGGTAALGCLVKDYFPEPVTVSWNSGALTSGVHTFPAVLQSSGLYSLSSVVTVPSSSLGTQTYICNVNHKPSNTKVDKKVEPKSCDKTHTCPPCPAPELLAGPDVFLFPPKPKDTLMISRTPEVTCVVVDVSHEDPEVKFNWYVDGVEVHNAKTKPREEQYNSTYRVVSVLTVLHQDWLNGKEYKCKVSNKALPLPEEKTISKAKGQPREPQVYTLPPSREEMTKNQVSLTCLVKGFYPSDIAVEWESNGQPENNYKTTPPVLDSDGSFFLYSKLTVDKSRWQQGNVFSCSVLHEALHSHYTQKSLSLSPGK
light: not shown
For B2, the “Virus Neutralization Potency (IC50)” value [40] was 0.35 µg/mL, the “Virus Neutralization Potency (IC50)” value [41] was 0.08 µg/mL and the “Virus Neutralization Potency (IC50)” value [42] was 0.09 µg/mL. For the same binder, the “Virus Neutralization Potency (IC50)” value [43] was 0.83 µg/mL.

B3: Antibody 1.14.15-1 (antibody)
heavy: QVQLLQSGAAVTKPGASVRVSCEASGYNIRDYFMHWVRQAPGQGLQWVGWINPKTGQPNNPRQFQGRVSLTRHASWDFDTFSAYMDLKALRSDDTAVYFCARQRSDYWDFDVWGSGTQVTVSSASTKGPSVFPLAPSSKSTSGGTAALGCLVKDYFPEPVTVSWNSGALTSGVHTFPAVLQSSGLYSLSSVVTVPSSSLGTQTYICNVNHKPSNTKVDKKVEPKSCDKTHTCPPCPAPELLAGPDVFLFPPKPKDTLMISRTPEVTCVVVDVSHEDPEVKFNWYVDGVEVHNAKTKPREEQYNSTYRVVSVLTVLHQDWLNGKEYKCKVSNKALPLPEEKTISKAKGQPREPQVYTLPPSREEMTKNQVSLTCLVKGFYPSDIAVEWESNGQPENNYKTTPPVLDSDGSFFLYSKLTVDKSRWQQGNVFSCSVLHEALHSHYTQKSLSLSPGK
light: not shown
With B3 the “Virus Neutralization Potency (IC50)” value [40] was greater than 20 µg/mL, the “Virus Neutralization Potency (IC50)” value [41] was greater than 20 µg/mL and the “Virus Neutralization Potency (IC50)” value [42] was greater than 20 µg/mL. For the same binder, the “Virus Neutralization Potency (IC50)” value [43] was greater than 20 µg/mL.

B4: Antibody 1.34.32-1 (antibody, human IgG1, kappa)
heavy: QVQLVQSGAEVKKPGASVRVSCKASGYNIRDYFIHWWRQAPGQGLQWVGWINPKTGQPNNPRQFQGRVTLTRHASWDFDTFSFYMDLKALRSDDTAVYFCARQRTDYWDFDVWGSGTQVTVSSASTKGPSVFPLAPSSKSTSGGTAALGCLVKDYFPEPVTVSWNSGALTSGVHTFPAVLQSSGLYSLSSVVTVPSSSLGTQTYICNVNHKPSNTKVDKKVEPKSCDKTHTCPPCPAPELLAGPDVFLFPPKPKDTLMISRTPEVTCVVVDVSHEDPEVKFNWYVDGVEVHNAKTKPREEQYNSTYRVVSVLTVLHQDWLNGKEYKCKVSNKALPLPEEKTISKAKGQPREPQVYTLPPSREEMTKNQVSLTCLVKGFYPSDIAVEWESNGQPENNYKTTPPVLDSDGSFFLYSKLTVDKSRWQQGNVFSCSVLHEALHSHYTQKSLSLSPGK
light: not shown
B4 was tested, and the “Virus Neutralization Potency (IC50)” value [40] was 0.54 µg/mL, the “Virus Neutralization Potency (IC50)” value [41] was 0.11 µg/mL and the “Virus Neutralization Potency (IC50)” value [42] was 0.31 µg/mL. The “Virus Neutralization Potency (IC50)” value [43] was 1.47 µg/mL.

B5: Antibody 1.36.36-1 (antibody, human IgG1, kappa)
heavy: QVQLVQSGAEVKKPGASVRVSCKASGYNIRDYFMHWWRQAPGQGLQWVGWINPKTGQPNNPRQFQGRVTMTRHASWDFDTFSAYMDLSRLRSDDTATYFCARQRTDYWDFDVWGQGTMVTVSSASTKGPSVFPLAPSSKSTSGGTAALGCLVKDYFPEPVTVSWNSGALTSGVHTFPAVLQSSGLYSLSSVVTVPSSSLGTQTYICNVNHKPSNTKVDKKVEPKSCDKTHTCPPCPAPELLAGPDVFLFPPKPKDTLMISRTPEVTCVVVDVSHEDPEVKFNWYVDGVEVHNAKTKPREEQYNSTYRVVSVLTVLHQDWLNGKEYKCKVSNKALPLPEEKTISKAKGQPREPQVYTLPPSREEMTKNQVSLTCLVKGFYPSDIAVEWESNGQPENNYKTTPPVLDSDGSFFLYSKLTVDKSRWQQGNVFSCSVLHEALHSHYTQKSLSLSPGK
light: not shown
For B5, the “Virus Neutralization Potency (IC50)” value [40] was 3.84 µg/mL, the “Virus Neutralization Potency (IC50)” value [41] was 0.3 µg/mL and the “Virus Neutralization Potency (IC50)” value [42] was greater than 20 µg/mL. The “Virus Neutralization Potency (IC50)” value [43] was 2.07 µg/mL.
